Among the data in publication PMC3750474 are rate of cis-trans isomerization of the capsid G89-P90 bond catalysed by CypA (NMR ZZ-exchange; 430 μM CA^N, 35 μM CypA, 298 K) values, retold here.

The target in the assay is HIV-1 M-group (NL4-3) N-terminal capsid domain (HIV-1 M-group (NL4-3)).

“human cyclophilin A (from UniProt P62937 1-165) (enzyme)” showed a rate of cis-trans isomerization of the capsid G89-P90 bond catalysed by CypA (NMR ZZ-exchange; 430 μM CA^N, 35 μM CypA, 298 K) of 4.3 s⁻¹.
